Results deposited as PubChem BioAssay AID624099 (ICCB-Longwood, 2012)

- Assay: 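Human genes that papillomavirus E2 requires to repress the HPV18 LCR promoter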 (primary screen)
- System: human C33A cervical carcinoma cells (HPV-negative) stably expressing BPV1 E2 and an HPV18 LCR luciferase reporter
- Reagents: siRNA pool against human genes, 40 nM
- Timing: 72 h
- Read-out: 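Per-well luciferase luminescence, z-scored on each plate against the plate mean and SD with control wells left out, then averaged across three replicate plates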
- Reading the numbers: mean z-score and z-score: higher = stronger reporter signal, weaker E2 silencing
- Hit rule: 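Mean z ≥ 2 together with z ≥ 2 in two or more of the three replicates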
Here is an unselected part of about 21,000 reagents. 497 of all reagents (2.4%) were called active. 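Higher z means weaker E2 silencing; only reporter increases were scored, and knock-downs that hurt cell survival may mask genuine repressor factors.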 A number with no mark means an inactive call. Reagents against one gene are numbered here.

gene symbol	pool no.	mean z-score	z-score, replicate A	z-score, replicate B	z-score, replicate C
PACSIN1	1	-0.57	-0.49	-0.65	-0.58
PKN2	1	-2.95	-3.02	-2.82	-3.02
HORMAD2	1	-0.17	0.21	-0.06	-0.67
EVI5	1	0.56	0.8	0.31	0.57
TSPYL1	1	-0.02	0.11	-0.23	0.08
DDX56	1	-1.42	-1.41	-1.42	-1.42
MISO1	1	-0.42	-0.41	-0.48	-0.36
LIPE	1	-0.09	-0.06	-0.21	0.01
DNASE1	1	-0.81	-0.36	-0.85	-1.22
HBS1L	1	0.34	0.54	0.25	0.23
RELCH	1	-0.73	-0.97	-0.27	-0.97
NASP	1	-0.91	-0.98	-0.52	-1.23
LINC02649	1	-0.45	-0.29	-0.35	-0.7
SEC22C	1	-0.12	-0.13	-0.09	-0.13
ARHGAP23	1	0.56	0.58	0.82	0.26
GCM1	1	-1.61	-1.61	-1.53	-1.68
LOC107986845	1	1.96	1.91	2.08	1.9
LOC107986845	2	1.42	0.88	2.03	1.35
NXF5	1	-1.69	-1.61	-1.59	-1.87
LRRC2	1	-0.26	-0.45	-0.13	-0.18
DEFB1	1	0.41	0.47	0.63	0.15
ABCA3	1	1.54	1.56	1.51	1.55
SRMS	1	0.86	0.72	1	0.85
RELN	1	0.31	0.4	0.36	0.18
HSPB9	1	0.09	0.14	-0.06	0.2
PHETA2	1	-0.64	-0.7	-0.48	-0.73
KRCC1	1	-0.6	-0.22	-0.78	-0.8
PLAAT3	1	0.38	0.3	0.64	0.2
LOC389264 (retired record)	1	-2.06	-1.59	-2.33	-2.27
PWWP2B	1	1.03	0.87	1.2	1.03
NECAB2	1	-0.69	-0.78	-0.61	-0.68
FOXD4L4	1	-0.1	-0.06	0.03	-0.26
ECRG4	1	-0.39	0.04	-0.32	-0.88
RSRP1	1	1.11	1.12	1.1	1.12
ITIH3	1	-0.55	-0.7	-0.81	-0.15
GCNT1	1	-0.42	-0.38	-0.5	-0.38

A portion taken from the entries so far, as a working copy:
gene symbol	pool no.	mean z-score	z-score, replicate A	z-score, replicate B	z-score, replicate C
PWWP2B	1	1.03	0.87	1.2	1.03
NECAB2	1	-0.69	-0.78	-0.61	-0.68
FOXD4L4	1	-0.1	-0.06	0.03	-0.26
ECRG4	1	-0.39	0.04	-0.32	-0.88

Continued.
gene symbol	pool no.	mean z-score	z-score, replicate A	z-score, replicate B	z-score, replicate C
TGIF2	1	0.45	0.55	0.24	0.57
NDUFA5	1	-0.73	-0.71	-0.79	-0.7
TMEM213	1	0.16	0.08	0.2	0.19
WDR18	1	-0.51	-0.78	-0.6	-0.15
TEX47	1	0.39	0.55	0.32	0.29
HCN1	1	-1.4	-1.34	-1.25	-1.61
KLF7	1	-0.19	-0.32	0.1	-0.34
ATP5F1D	1	1.93	1.85	1.71	2.22
FAM225B	1	-1.17	-1.4	-1	-1.12
LRCH4	1	1.32	1.48	1.34	1.13
RRP1	1	-0.18	-0.34	-0.1	-0.09
AFG1L	1	-0.73	-1.02	-0.47	-0.7
SYBU	1	0	0.02	0.05	-0.06
GDPD4	1	0.61	0.47	0.69	0.68
CCDC66	1	0.46	0.49	0.48	0.4
CLASP1	1	-0.64	-0.96	-0.31	-0.65
DEGS2	1	0.25	0.21	0.34	0.18
ZBED1	1	-0.24	-0.38	-0.13	-0.23
TRIM6	1	-1.39	-1.43	-1.21	-1.54
ENTREP3	1	0.23	0.23	0.07	0.37
CNTNAP1	1	0.79	0.92	0.8	0.66
